Read-outs that look alike come from different tables or passages of the source.
Key:
[1] = target: human α7 nAChR expressed in GH4C1 cells (Homo sapiens, UniProt P36544); assay: Competition radioligand assay with 125I-labeled α-bungarotoxin, GH4C1 cells; conditions: compound 50 μM
[2] = target: muscle-type T. californica nAChR (Tetronarce californica, UniProt P02710+P02714+P02718); assay: Competition radioligand assay with 125I-labeled α-bungarotoxin, T. californica membranes; conditions: read-out: IC50 ± SEM, competition with 125I-αBgt for binding to T. californica nAChR, T. californica electric organ membranes

Amino acid sequences for entries named in this document (tags omitted). A change or cut given only in a name is not applied to a line headed by its entry. Residues count along the entry.
UniProt P36544, 23-502 limits assumed: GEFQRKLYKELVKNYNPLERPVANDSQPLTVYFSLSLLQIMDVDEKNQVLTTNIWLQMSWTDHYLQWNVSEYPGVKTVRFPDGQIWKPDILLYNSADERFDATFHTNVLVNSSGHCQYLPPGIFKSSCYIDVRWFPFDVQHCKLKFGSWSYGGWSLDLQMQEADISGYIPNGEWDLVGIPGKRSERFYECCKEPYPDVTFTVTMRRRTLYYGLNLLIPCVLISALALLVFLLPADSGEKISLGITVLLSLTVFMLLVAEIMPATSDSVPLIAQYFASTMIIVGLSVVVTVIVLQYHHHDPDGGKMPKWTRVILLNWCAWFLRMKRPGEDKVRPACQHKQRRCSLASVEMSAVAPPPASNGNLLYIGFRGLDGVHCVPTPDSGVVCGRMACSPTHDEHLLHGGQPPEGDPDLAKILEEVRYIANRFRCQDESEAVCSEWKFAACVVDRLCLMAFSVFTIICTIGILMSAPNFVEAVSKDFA
UniProt P02710: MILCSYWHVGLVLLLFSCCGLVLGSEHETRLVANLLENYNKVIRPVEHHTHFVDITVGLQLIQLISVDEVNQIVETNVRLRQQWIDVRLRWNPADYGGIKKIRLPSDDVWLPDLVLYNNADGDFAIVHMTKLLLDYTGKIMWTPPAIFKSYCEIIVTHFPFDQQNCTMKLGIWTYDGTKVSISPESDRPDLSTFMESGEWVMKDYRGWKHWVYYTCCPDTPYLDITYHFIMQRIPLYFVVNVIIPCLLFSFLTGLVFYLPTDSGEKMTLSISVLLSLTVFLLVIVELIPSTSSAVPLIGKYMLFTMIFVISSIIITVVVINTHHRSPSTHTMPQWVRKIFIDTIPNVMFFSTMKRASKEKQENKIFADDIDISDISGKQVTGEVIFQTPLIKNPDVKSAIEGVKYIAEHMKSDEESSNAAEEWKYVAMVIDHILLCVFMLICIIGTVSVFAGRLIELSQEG
UniProt P02714: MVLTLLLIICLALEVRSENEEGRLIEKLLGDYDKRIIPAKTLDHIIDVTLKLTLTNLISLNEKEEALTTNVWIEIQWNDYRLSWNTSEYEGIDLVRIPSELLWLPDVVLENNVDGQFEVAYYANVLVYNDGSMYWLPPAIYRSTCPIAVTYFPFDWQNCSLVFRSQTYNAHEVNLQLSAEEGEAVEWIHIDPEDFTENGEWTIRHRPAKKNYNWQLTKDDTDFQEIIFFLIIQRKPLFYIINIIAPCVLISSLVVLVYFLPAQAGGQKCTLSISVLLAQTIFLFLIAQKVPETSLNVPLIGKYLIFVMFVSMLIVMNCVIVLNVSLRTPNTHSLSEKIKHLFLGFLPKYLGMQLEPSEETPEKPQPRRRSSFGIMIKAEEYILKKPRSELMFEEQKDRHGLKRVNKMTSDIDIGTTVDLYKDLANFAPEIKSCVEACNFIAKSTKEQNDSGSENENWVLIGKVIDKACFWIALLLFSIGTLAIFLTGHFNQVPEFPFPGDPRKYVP
UniProt P02718: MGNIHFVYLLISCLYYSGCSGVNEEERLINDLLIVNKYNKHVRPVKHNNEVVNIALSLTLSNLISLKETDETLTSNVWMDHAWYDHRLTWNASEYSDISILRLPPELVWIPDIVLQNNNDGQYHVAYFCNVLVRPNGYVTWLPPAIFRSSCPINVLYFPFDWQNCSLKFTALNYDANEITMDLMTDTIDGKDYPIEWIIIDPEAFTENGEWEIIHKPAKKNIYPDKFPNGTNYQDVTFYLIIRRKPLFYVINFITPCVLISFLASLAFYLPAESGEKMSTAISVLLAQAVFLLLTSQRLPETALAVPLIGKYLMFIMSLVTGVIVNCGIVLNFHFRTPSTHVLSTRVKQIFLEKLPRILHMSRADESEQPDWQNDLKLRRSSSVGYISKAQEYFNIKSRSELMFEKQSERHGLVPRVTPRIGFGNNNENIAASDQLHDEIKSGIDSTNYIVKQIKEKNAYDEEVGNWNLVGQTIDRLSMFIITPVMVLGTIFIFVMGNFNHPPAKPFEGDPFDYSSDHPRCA

In the case of N=C(N)NCCC[C@H](N)C(=O)NCCCNCCCNCCCCCNC(=O)[C@H](CC(N)=O)NC(=O)Cc1ccc(O)cc1O [AgTx-636, argiotoxin-636], the “Inhibition of 125I-αBgt binding to human α7 nAChR” value [1] is reported as no more than 20%, the IC50 [2] is reported as 15.3 µM and the IC50 ([2]; listed as Argiotoxin-636) is reported as 15 µM.

From paper PMC10758494 (Frontiers in Pharmacology, 2023)
